{
  "source": "patent US8753605B2",
  "about": "“Imaging probes, methods of making imaging probes, and methods of imaging” (The Board of Trustees of the Leland Stanford Junior …, priority 2010, dated 2014)",
  "type_in_all_cases": "in vivo",
  "key": {"SUM159 TNBC tumors": {"tested_on": "SUM159 TNBC tumors", "assay": "microPET imaging of nude mice bearing SUM159 TNBC tumors", "settings": "nu/nu mouse bearing SUM159", "procedure": "Ac-Cys-ZEGFR:1907 was chemically synthesized using a solid phase peptide synthesizer and then site-specifically conjugated with 1,4,7,10-tetraazacyclododecane-1,4,7,10-tetraacetic acid (DOTA) for radiolabeling or N-2-(4-^18F-fluorobenzamido)-ethyl]-maleimide (^18F-FBEM)^3. The in vitro cell uptake study was performed using SUM159 cells. MicroPET imaging using ^64Cu-DOTA-ZEGFR:1907 or ^18F-FBEM-ZEGFR:1907 were evaluated in nude mice bearing subcutaneous MDA-MB-231 and SUM159 TNBC tumors. Biodistribution studies were performed to understand the in vivo pharmacokinetics of ZEGFR:1907. Immunohistochemistry studies were performed to confirm imaging findings ex vivo (data not shown)."}, "head and neck tumor": {"tested_on": "head and neck tumor", "assay": "microPET imaging of mice bearing head and neck cancer tumor", "settings": "50-70 μCi spiked with 45 μg cold Ac-Cys-ZEGFR:1907, tail vein", "procedure": "PET imaging of tumor-bearing mice was performed on a microPET R4 rodent model scanner (Siemens Medical Solutions USA, Inc.). The mice bearing head and neck cancer were injected with ^18F-FBEM-CYS-ZEGFR:1907 (1.85-2.59 MBq, 50-70 μCi, 2-3 μg) spiked with cold Ac-Cys-ZEGFR:1907 (45 μg) via the tail vein. For the treated group, mice were scanned three weeks after anti-cancer drug treatment. At different times after the injection, the mice were anesthetized with 2% isoflurane and placed in the prone position and near the center of the field of view of a microPET. The 3-min static scans were obtained, and the images were reconstructed by a two-dimensional ordered subsets expectation maximum (OSEM) algorithm."}, "[1]": {"tested_on": "EGFR overexpression A431 tumor xenograft", "assay": "microPET imaging of mice bearing A431 tumor"}},
  "data": [
    {"substance": "^18F-FBEM-CYS-ZEGFR:1907: N-2-(4-18F-fluorobenzamido)ethyl-maleimide attached to the Cys residue of Ac-Cys-ZEGFR:1907, an EGFR Affibody peptide (SEQ ID NO: 1)", "values": [
      {"measurement": "imaging contrast at tumor", "setting": "SUM159 TNBC tumors; as early as 1.5 h p.i.", "value": "high contrast imaging"},
      {"measurement": "accumulation in tumor (speed)", "setting": "SUM159 TNBC tumors; tail vein injection", "value": "fast accumulation"},
      {"measurement": "tumor uptake (microPET)", "setting": "head and neck tumor", "value": "high uptake"},
      {"measurement": "time of best imaging contrast", "setting": "[1]; microPET", "value": 3, "unit": "h post-injection"},
      {"measurement": "tumor uptake (microPET)", "setting": "[1]; probe 50-70 μCi coinjected with 45 μg cold Ac-Cys-ZEGFR:1907, or 18F-FDG 90 μCi, tail vein", "value": "high uptake in tumor at all time-point"}
    ]}
  ]
}
